Anti-infective test results gathered from many reports (values: NIAID ChemDB through PubChem).

Shared fields: target-level tests; organism: HIV-1; target: Reverse transcriptase; read-out: fold resistance

Fold resistance has wild type as its base.

structure | method | strain | mutations | result
O=c1c2cccn2c2ccccc2n1CCNC(=S)Nc1ccc(Br)cn1 | nucleotide incorporation |  | RT-V106A | 1.93
C/C=C/CSc1cc(NC(=S)c2ccsc2C)ccc1Cl |  |  | RT-P236L | 1.13
CC(C)=CCN1C(=O)c2cccn2-c2ccc(Cl)cc2S1(=O)=O | RT activity | IIIB | RT-Y181C | 21.4
c1ccc(C2SCc3nc4ccccc4n32)cc1 |  |  | RT-I135T | 1
CCc1c([Se]c2ccccc2)n(COCc2ccccc2)c(=O)[nH]c1=O | RT activity |  | RT-T181C | 24
CC(C)=CCN1Cc2cccc3[nH]c(=S)n(c23)C[C@@H]1C |  |  | RT-H208Y | 1.1
Cc1occc1C(=S)Nc1ccc(Cl)c(/C=N/OC(C)(C)C)c1 |  |  | RT-P236L | 0.75
CC(C)=CCN1C(=O)Nc2ccc(Cl)cc2S1(=O)=O | RT activity | IIIB | RT-L100I | 3.7
Cc1cn([C@H]2C=C[C@@H](COP(=O)(O)OP(=O)(O)OP(=O)(O)O)O2)c(=O)[nH]c1=O | RT activity |  | RT-K103N | 1.5
Nc1ncnc2c1ncn2[C@H]1CC[C@@H](COP(=O)(O)OP(=O)(O)OP(=O)(O)O)O1 | nucleotide incorporation / radiometric |  | RT-A62V V75I F77L F116Y Q151M | 17.4
COc1ccc(/C=C/NC(=O)Nc2ccc(Cl)cn2)cc1OC | nucleotide incorporation |  | RT-K103N | 2.86
CCc1c(Sc2ccccn2)n(COCc2ccccc2)c(=O)[nH]c1=O |  |  | RT-K103N | 3
O=C(Nc1nnc(-c2ccc3c(c2)CCCC3)o1)C1=COCCO1 | RT activity / nucleotide incorporation / luminescence | NL4-3 | Y181C | 10
CCc1c([Se]c2ccccn2)n(COCc2ccccc2)c(=O)[nH]c1=O | RT activity |  | RT-T181C | 34
Nc1ncnc2c1ncn2[C@H]1CC[C@@H](COP(=O)(O)OP(=O)(O)OP(=O)(O)O)O1 | ELISA |  | RT-L74V T215Y K219Q | 5.28
Cc1cc(S(N)(=O)=O)ccc1NC(=O)COc1ccc(Cl)cc1C(=O)c1cc(Cl)cc(C#N)c1 | fluorescence |  | RT-Y188C | 1.72
CC(C)=CCN1C(C)C(=O)Nc2ccc(Cl)cc2S1(=O)=O | RT activity | IIIB | RT-Y181C | 9.09
CC(C)=CCOc1cc(NC(=S)c2ccoc2C)ccc1Cl |  |  | RT-M184V | 1.31
O=c1c2cccn2ccn1CCNC(=S)Nc1ccc(Br)cn1 | nucleotide incorporation |  | RT-Y188L | 33.9
Cc1c(Sc2ccccc2)n(COCCO)c(=O)[nH]c1=O | nucleotide incorporation |  | RT-Y188L | >33.3
Nc1ccn([C@H]2CC[C@@H](COP(=O)(O)OP(=O)(O)OP(=O)(O)O)O2)c(=O)n1 | ELISA |  | RT-L74V | 1.96
CCc1c(Sc2ccccn2)n(COCc2ccccc2)c(=O)[nH]c1=O | RT activity |  | RT-L100I | 3
Nc1ccn([C@H]2CC[C@@H](COP(=O)(O)OP(=O)(O)OP(=O)(O)O)O2)c(=O)n1 | nucleotide incorporation / radiometric |  | RT-T215Y | 2.3
CNc1ccc(Cl)cc1S(=O)(=O)c1ccccc1[N+](=O)[O-] |  |  | RT-K103N | 9.09
Cc1cn([C@@H]2O[C@H](CO[Si](C)(C)C(C)(C)C)C3(OS(=O)(=O)C=C3N)[C@H]2O[Si](C)(C)C(C)(C)C)c(=O)n(C)c1=O | RT activity | IIIB | RT-P225H | 0.733
Cc1cc(SC2=C(O)CC(CCc3ccc(O)cc3)(C3CCCCC3)OC2=O)c(C(C)(C)C)cc1CO | HPLC / absorbance |  | RT-I84V | 20
Cc1ccc2c(c1)n(CCNC(=S)Nc1ccc(Br)cn1)c(=O)c1cccn12 | nucleotide incorporation |  | RT-L100I | 17.5
CCc1cc(CCc2nc3ccccc3o2)c(=S)[nH]c1C | nucleotide incorporation |  | RT-Y181C | 190
Cc1cc(SC2=C(O)C[C@@](CCc3ccc(N)cc3)(C(C)C)OC2=O)c(C(C)(C)C)cc1CO | HPLC / absorbance |  | RT-I84V | 2.6
CCc1cc(CCc2nc3c(Cl)ccc(Cl)c3o2)c(=S)[nH]c1C | nucleotide incorporation |  | RT-K103N Y181C | 3
O=C1c2ccncc2C(=O)N1CCNC(=S)Nc1ccc(Br)cn1 | nucleotide incorporation |  | RT-Y181I | 14.3
Nc1ccn([C@@H]2CS[C@H](COP(=O)(O)OP(=O)(O)OP(=O)(O)O)O2)c(=O)n1 | nucleotide incorporation / radiometric |  | RT-K65R | 11.54
Cc1cn([C@H]2CC[C@@H](COP(=O)(O)OP(=O)(O)OP(=O)(O)O)O2)c(=O)[nH]c1=O | nucleotide incorporation / radiometric |  | RT-N137A | 1

Blank or dashed fields: not listed here. Rows are shuffled and stem from different studies.